Results of unrelated studies side by side (data: NIAID ChemDB).

All rows: whole-cell or culture tests; agent: Hepatitis B virus; read-out: EC50

a–b is a range or a potency band. Rows are shuffled and stem from different studies. Blank or dashed fields: not listed here. ECn: concentration that inhibits the pathogen or its effect by n%.

| compound | method | strain | cell line | mutations | result |
|---|---|---|---|---|---|
| O=C1NC(=O)/C(=C/c2ccc(-c3ccc(-c4ccccc4)cc3)cc2)S1 | PCR | Genotype D | HepG2-NTCP | - | >10 µM |
| Cc1cc(C)n(-c2nc3c(c(=O)n2-c2cnc4c(ncn4C)n2)C[C@@H](C)N(C(=O)c2ccc(Br)c(C(F)(F)F)c2)C3)n1 | PCR | Genotype D | HepG2.117 | - | ≤0.05 µM |
| N=c1nc(N)c2ncn([C@@H]3O[C@H](CO)[C@@H](O)[C@H]3O)c2c(N)n1 | - | - | 2.2.15 | - | >10 µM |
| Cc1cc(NC(=O)c2c(C)noc2C)ccc1F | - | - | HepG2.2.15 | - | 0.2 µM |
| CCc1c(Sc2cc(C)cc(C)c2)[nH]c(=O)[nH]c1=O | hybridisation | - | HepG2 2.2.15 | - | >100 µM |
| CC1(CO)O[C@H](n2cnc3c(N)ncnc32)[C@@H](O)[C@H]1O | - | - | HepG2.2.15 | - | >10 µM |
| O=C(c1ccc(Br)c(Cl)c1)N1CCS(=O)(=O)[C@@](F)(c2ncc(-c3ccccc3)s2)C1 | PCR | - | HepG2.117 | - | 0.5–5 µM |
| COc1ccc(-n2c(C(=O)N[C@H](C)c3ccccc3)c3n(c2=O)CCN(C(=O)c2ccc(Cl)c(Cl)c2)C3)cc1 | PCR | - | HepG2.117 | - | 0.5–5 µM |
| CCc1c(Sc2ccc(F)cc2)[nH]c(=O)[nH]c1=O | hybridisation | - | HepG2 2.2.15 | - | >100 µM |
| CCNC(=O)C(=O)N1CCN(S(=O)(=O)c2cn(C)c(C(=O)Nc3cc(F)c(F)c(F)c3)c2F)CC1 | PCR | - | HepAD38 cells | - | 0.3–1 µM |
| Nc1ccn([C@@H]2CS[C@H](CO)O2)c(=O)n1 | - | - | 2.2.15 | - | 0.1 µM |
| O=C(c1ccc(Br)c(Cl)c1)N1CCn2c(c3n(c2=O)C[C@H](CO)CN(Cc2ccccc2)C3=O)C1 | PCR | - | HepG2.117 | - | 0.1–0.5 µM |
| Cc1cc(C)n(-c2nc3c(c(=O)n2-c2cnc4c(c2)ncn4C)C[C@@H](C)N(C(=O)c2ccc(Br)c(C(F)(F)F)c2)C3)n1 | PCR | Genotype D | HepG2.117 | - | ≤0.05 µM |
| C[C@H](NC(=O)c1c2n(c(=O)n1-c1ccc(OC3CC3)cc1)C[C@H](C)N(C(=O)c1ccc(Br)c(Cl)c1)C2)c1ccccc1 | PCR | - | HepG2.117 | - | 0.1–0.5 µM |
| O=c1ccn([C@@H]2O[C@H](CO)[C@](O)(C(F)(F)F)[C@H]2O)c(=O)[nH]1 | - | - | - | - | ≥100 µM |
| CCNC(=O)C(=O)N1CCC(NS(=O)(=O)c2cn(/C=C/F)c(C(=O)Nc3cc(F)cc(Cl)c3)c2F)CC1 | PCR | - | HepAD38 cells | - | <0.1 µM |
| CCc1c(Sc2cc(Cl)ccc2C)[nH]c(=O)[nH]c1=O | hybridisation | - | HepG2 2.2.15 | - | 38 µM |
| C[C@]1(CO)O[C@@H](n2ccc(=O)[nH]c2=O)[C@H](O)[C@@H]1O | - | - | HepG2.2.15 | - | >10 µM |
| CS(=O)(=O)N1CC(C(=O)NC2CC3(C2)CC(c2nc4cc(Cl)ccc4o2)C3)C1 | luminescence | - | Primary human hepatocytes | - | 3.56 µM |
| COC(=O)c1cc2ccc(N)cc2[nH]1 | - | - | - | - | 0.31 µg/mL |
| O=C(Nc1ccc(-c2nc3ccc(F)c(F)c3o2)cc1)C1CCOC1 | antigen / luminescence | - | Primary human hepatocytes (PHH) | - | 2.06 µg/mL |
| C[C@@H](NC(=O)c1c2n(c(=O)n1-c1ccc(OC3CC3)cc1)CCN(C(=O)c1ccc(Br)c(Cl)c1)C2)c1ccccc1-n1cncn1 | PCR | - | HepG2.2.15 | - | 0.5–5 µM |
| Nc1nc2c(ncn2/C=C2\CC2(CO)CO)c(=O)[nH]1 | hybridisation | - | 2.2.15 | - | >10 µM |
| COC(=O)c1cc2c(OC)cccc2[nH]1 | - | - | - | - | 2.13 µg/mL |
| Cc1cc2occc2cc1CNC(=O)c1c2n(c(=O)n1-c1ccc(OCC(F)(F)F)cc1)CCN(C(=O)c1ccc(Br)c(Cl)c1)C2 | PCR | - | HepG2.117 | - | 0.1–0.5 µM |
| Nc1nc(Cl)c2ncn(/C=C3/C[C@H]3CO)c2n1 | - | - | 2.2.15 | - | >10 µM |
| O=C(c1ccc(Cl)cc1F)N1CCS(=O)(=O)[C@@H](c2cccs2)C1 | PCR | - | HepG2.117 | - | 0.5–5 µM |
| Cc1cc(NC(=O)c2ccc(F)c(Br)c2)ccc1F | - | - | HepG2.2.15 | - | 0.6 µM |
| COC(=O)c1cc(=O)c2c(OC)cc(N)cc2[nH]1 | - | - | - | - | 0.1 µg/mL |
| Nc1nc2c(ncn2/C=C2/CC2(CO)CO)c(=O)[nH]1 | hybridisation | - | 2.2.15 | - | >10 µM |
| Cc1cc(C)n(-c2nc3c(c(=O)n2-c2ccc(NC[C@@H](C)O)nc2)C[C@@H](C)N(C(=O)c2ccc(Br)c(C(F)(F)F)c2)C3)n1 | PCR | Genotype D | HepG2.117 | - | ≤0.05 µM |
| O=C1NC(=O)/C(=C/c2ccc(-c3ccc(C(=O)Nc4ccccc4)cc3)cc2)S1 | PCR | Genotype D | HepG2-NTCP | - | >10 µM |
| Cc1cc(C)n(-c2nc3c(c(=O)n2-c2ccc4c(ncn4C)n2)C[C@@H](C)N(C(=O)c2ccc(Br)c(C(F)(F)F)c2)C3)n1 | PCR | Genotype D | HepG2.117 | - | ≤0.05 µM |
| Nc1ccn([C@@H]2O[C@H](CO)[C@](O)(C(F)(F)F)[C@H]2O)c(=O)n1 | - | - | - | - | ≥100 µM |
| COc1ccccc1-c1ccc(-c2ccc(/C=C3\SC(=O)NC3=O)cc2)cc1 | PCR | Genotype D | HepG2-NTCP | - | 3.5 µM |
| Nc1ccn([C@@H]2CS[C@H](CO)O2)c(=O)n1 | - | - | HepG2.2.15 | - | 0.22 µM |
| Cc1cc(C)n(-c2nc3c(c(=O)n2-c2ccc(N4CCOCC4)nc2)C[C@@H](C)N(C(=O)c2ccc(Br)c(C(F)(F)F)c2)C3)n1 | PCR | Genotype D | HepG2.117 | - | ≤0.05 µM |
| COC(=O)C1=C(C)NC(c2ncc(F)cc2F)=NC1c1ccc(F)cc1Cl | hybridisation | - | HepAD38 | - | 0.124 µM |
| COC(=O)Cc1cnc2cc(N)cc(OC)c2c1 | - | - | - | - | 0.32 µg/mL |
| Cc1cc(NC(=O)c2c3c(cn2C)S(=O)(=O)NC2CCN(C(=O)C(=O)NC4CC4)CC2CO3)ccc1F | PCR | - | HepAD38 | - | <0.5 µM |
| Cc1nc2c(CNC(=O)c3c4n(c(=O)n3-c3ccc(OCC(F)(F)F)cc3)CCN(C(=O)c3ccc(Br)c(Cl)c3)C4)cccc2o1 | PCR | - | HepG2.117 | - | 0.1–0.5 µM |
| Cc1cc(NC(=O)c2c3c(cn2C)S(=O)(=O)N[C@H]2CN(C(=O)C(=O)N[C@H](C)C(F)(F)F)C[C@H]2CO3)ccc1F | PCR | - | HepG2 | T128I | 0.00891 µM |
| CNS(=O)(=O)N1CCC(C)(NS(=O)(=O)c2cn(C)c(C(=O)Nc3ccc(F)c(F)c3)c2F)CC1 | PCR | - | HepAD38 cells | - | <0.1 µM |
| Cc1cc(C)n(-c2nc3c(c(=O)n2-c2cc(F)c4ncn(C)c4c2)C[C@@H](C)N(C(=O)c2ccc(Br)c(C(F)(F)F)c2)C3)n1 | PCR | Genotype D | HepG2.117 | - | ≤0.05 µM |
| C[C@H](c1cnc([C@@]2(F)CN(C(=O)c3ccc(Br)c(Cl)c3)CCS2(=O)=O)s1)c1ccccc1F | PCR | - | HepG2.117 | - | <0.1 µM |
| COC(=O)c1ccc2cc(OC)cc(N)c2n1 | - | - | - | - | 0.34 µg/mL |
| Cc1cc(C)n(-c2nc3c(c(=O)n2-c2ccc(OC[C@H](C)O)nc2)C[C@@H](C)N(C(=O)c2ccc(Br)c(C(F)(F)F)c2)C3)n1 | PCR | Genotype D | HepG2.117 | - | ≤0.05 µM |
| COC(=O)c1cc2ccc(N(C)C)cc2[nH]1 | - | - | - | - | 0.43 µg/mL |
| Cc1cc(C)n(-c2nc3c(c(=O)n2-c2ncc(N)cn2)C[C@@H](C)N(C(=O)c2ccc(Br)c(C(F)(F)F)c2)C3)n1 | PCR | Genotype D | HepG2.117 | - | ≤0.05 µM |
| COc1ccc(CN2C/C=C\Cn3c(c4n(c3=O)CCN(C(=O)c3ccc(Br)c(Cl)c3)C4)C2=O)cc1 | PCR | - | HepG2.117 | - | 0.1–0.5 µM |
| CNC(=O)C(=O)N1CC[C@@H](NS(=O)(=O)c2cn(C)c(C(=O)Nc3ccc(F)c(C#N)c3)c2Cl)C1 | PCR | - | HepAD38 cells | - | 0.1–0.3 µM |
| O=C1NC(=O)/C(=C/c2ccc(-c3ccc(Oc4ccccc4)cc3)cc2)S1 | PCR | Genotype D | HepG2-NTCP | - | >10 µM |
| CC(C)Oc1ccc(-n2c(C(=O)NCc3ccc4nc[nH]c4c3)c3n(c2=O)CCN(C(=O)c2ccc(Br)c(Cl)c2)C3)cc1 | PCR | - | - | - | 0.5–5 µM |
| Cc1cc(NC(=O)c2c3c(cn2C)S(=O)(=O)NC2CCN(C(=O)C(=O)N[C@@H](C)C(F)(F)F)CC2CO3)ccc1F | PCR | - | HepAD38 | - | <0.5 µM |

Again, the opening 7 rows:

compound,method,strain,cell line,mutations,result
O=C1NC(=O)/C(=C/c2ccc(-c3ccc(-c4ccccc4)cc3)cc2)S1,PCR,Genotype D,HepG2-NTCP,-,>10 µM
Cc1cc(C)n(-c2nc3c(c(=O)n2-c2cnc4c(ncn4C)n2)C[C@@H](C)N(C(=O)c2ccc(Br)c(C(F)(F)F)c2)C3)n1,PCR,Genotype D,HepG2.117,-,≤0.05 µM
N=c1nc(N)c2ncn([C@@H]3O[C@H](CO)[C@@H](O)[C@H]3O)c2c(N)n1,-,-,2.2.15,-,>10 µM
Cc1cc(NC(=O)c2c(C)noc2C)ccc1F,-,-,HepG2.2.15,-,0.2 µM
CCc1c(Sc2cc(C)cc(C)c2)[nH]c(=O)[nH]c1=O,hybridisation,-,HepG2 2.2.15,-,>100 µM
CC1(CO)O[C@H](n2cnc3c(N)ncnc32)[C@@H](O)[C@H]1O,-,-,HepG2.2.15,-,>10 µM
O=C(c1ccc(Br)c(Cl)c1)N1CCS(=O)(=O)[C@@](F)(c2ncc(-c3ccccc3)s2)C1,PCR,-,HepG2.117,-,0.5–5 µM